Residues, ends and D or L forms follow the SMILES beside them.
Legend:
DMPG LUVs = assay: Differential scanning calorimetry with DMPG LUVs; conditions: DSC
DMPG LUVs + PGN = assay: Differential scanning calorimetry with DMPG LUVs + peptidoglycan; set-up: species or system Staphylococcus aureus; conditions: DSC, DMPG LUVs + 0.02% (w/w) PGN
[1] = DMPG LUVs 1 mg.mL^-1, peptide to lipid ratio 1/25
[2] = DMPG LUVs 1 mg.mL^-1, peptide to lipid ratio 1/50
[3] = DMPG LUVs 1 mg.mL^-1, peptide to lipid ratio 1/100

CC[C@H](C)[C@H](NC(=O)CNC(=O)[C@H](Cc1c[nH]c2ccccc12)NC(=O)[C@@H](NC(=O)CN)C(C)C)C(=O)N[C@@H](C)C(=O)N[C@@H](CCCCN)C(=O)N[C@H](C(=O)N[C@@H](C)C(=O)NCC(=O)N[C@@H](CCCCN)C(=O)N[C@H](C(=O)N[C@@H](CC(C)C)C(=O)NCC(=O)N[C@@H](CC(N)=O)C(=O)N[C@H](C(=O)N[C@@H](CC(C)C)C(=O)N1CCC[C@H]1C(=O)N[C@@H](Cc1c[nH]cn1)C(=O)N[C@H](C(=O)N[C@@H](Cc1ccccc1)C(=O)N[C@@H](CO)C(=O)N[C@@H](CO)C(=O)N[C@@H](CC(N)=O)C(=O)N[C@@H](CCC(N)=O)C(=O)N[C@@H](CO)C(N)=O)C(C)C)[C@@H](C)CC)C(C)C)[C@@H](C)CC [DMS-DA6-NH2] (H-GVWGIAKIAGKVLGNILPHVFSSNQS-NH2)
Tm1 (DMPG LUVs; [1]): 28.0 ± 0.4 °C | Tm2 (DMPG LUVs; [1]): 16.1 ± 4.0 °C | ΔHm1 (DMPG LUVs; [1]): 2.29 ± 0.382 kcal/mol | ΔHm2 (DMPG LUVs; [1]): 0.478 ± 0.072 kcal/mol | Tm1 (DMPG LUVs; [2]): 25.8 ± 0.1 °C | Tm2 (DMPG LUVs; [2]): 22.9 ± 0.6 °C | ΔHm1 (DMPG LUVs; [2]): 3.75 ± 0.382 kcal/mol | ΔHm2 (DMPG LUVs; [2]): 1.34 ± 0.526 kcal/mol | Tm1 (DMPG LUVs; [3]): 23.9 ± 0.2 °C | ΔHm1 (DMPG LUVs; [3]): 7.07 ± 0.884 kcal/mol | Tm1 (DMPG LUVs + PGN; peptide to lipid ratio 1/25): 27.9 ± 0.2 °C | Tm2 (DMPG LUVs + PGN; peptide to lipid ratio 1/25): 11.2 ± 0.2 °C | Tm1 (DMPG LUVs + PGN; peptide to lipid ratio 1/50): 28.3 ± 0.3 °C | Tm2 (DMPG LUVs + PGN; peptide to lipid ratio 1/50): 21.4 ± 0.5 °C | Tm1 (DMPG LUVs + PGN; peptide to lipid ratio 1/100): 26.8 ± 0.2 °C | Tm2 (DMPG LUVs + PGN; peptide to lipid ratio 1/100): 23.6 ± 0.2 °C

Reference: PMC6191125, “Peptidoglycan potentiates the membrane disrupting effect of the carboxyamidated form of DMS-DA6, a Gram-positive selective antimicrobial peptide isolated from Pachymedusa dacnicolor skin” (PLoS ONE, 2018)
